Laboratory results taken from the supplement of paper PMC9931576.
Changes are numbered by the printed parent chain. Human monoclonal antibodies against the spike receptor-binding domain (heavy:light variable regions). IC50 against pseudoviruses bearing the spike of naturally observed variants; lower = stronger; >10 µg/ml means not reached at the top dose. No active / inactive call. The stated detection limit is 0.0005 µg/ml; values near or below 0.001 µg/ml lie at the floor of the assay.

B1: BD56-1692 (protein)
chain 1: EVQLVESGGGLVQPGRSLRLSCAASGFTFDDYAIHWVRQAPGKGLEWLSGSTWNSGTIGYADSVKGRFIISRDNAKNSLYLQMNRLRAEDTALYYCAKDQNGDGERAFDYWGQGTLVTVSS
chain 2: SYVLTQPPSVSVAPGQTARITCGGNNIGSKSVHWYQQKPGQAPVLVVYDDADRPSGIPERFSGSNSGNTATLTISRVEAGDEADYSCQVWDSSGDQVVFGGGTKLTVL
B2: BD56-1694 (protein)
chain 1: QVQLVQSGAEVKKPGSSVKVSCKAPGGTFSSYAISWVRQAPGQGLEWMGRIIPILGIPNYAQKFQDRVTITADKSTSTAYMDLSSLRSEDTAVYYCARDESRSCSSTTCFDYWGQGTLVTVSS
chain 2: QSVLTQPPSVSGAPGQRVTISCTGSNSNIGAGYDVHWYQQLPGAAPKLLIYNNNNRPSGVPDRFSGSKSGTSASLAITGLQADDESGYYCQSYDSSLSDVVFGGGTKLTVL
B3: BD56-1696 (protein)
chain 1: QVQLVESGGGVVRPGRSLRLSCAASGFTFSSYSMHWVRQAPGKGLQWVAVILYDGSYKDYADSVKGRFTISRDNSKNTLYLQMNSLRPEDTAVYYCARDWGTVVTLFDCWGQGALVTVSS
chain 2: DIQMTQSPSSLSASVGDRVTITCRASQSIKTYLNWFQQKPGKAPKLLIFGASSLQSGVPSRFSGSGSGTDFTLTISSLQPEDFATYYCQQSYNTPPWTFGQGTKVEIK
B4: BD56-1697 (protein)
chain 1: EVQLLESGGGLVHPGGSLRLSCAASGFTFSSYAMNWVRQAPGKGLEWVSVISDSGDDTYYGDSVMGRFTISRDNSKNTLYLQLNSLRAEDTAAYYCAKSGYCSGMTCPSGYYIDYWGQGTLITVSS
chain 2: DIQMTQSPSSLSASVGDRVTITCRASQHISSFLNWYQQKPGKAPKLLIYGASSLQSGVPSRFSGSGFGTDFTLAISSLQPEDFAAYYCQQSYTTPYTFGQGTKLEIK
B5: BD56-1701 (protein)
chain 1: QVRLVESGGGVVQPGTSLRLSCVASGFTFSSYTLHWVRQAPGKGLEWVGFVSHDGNSKHYADSVRGRFTISRDNSKNTLYLQMNSLRVEDTAVYYCARVPYGSGSLTGYFDYWGQGTLVTVSS
chain 2: SYVLIQPPSVSVAPGKTARITCGGDDIGSKNVHWYQQKPGQAPVLVVYDDHDRPAGTPERLSGSNSGNTATLTISRVEAGDEADYYCQVWDSSSDPWVFGGGTKLTVL
B6: BD56-1703 (protein)
chain 1: QVHLVESGGGVVRPGGSLRLSCSASGFTFSRYDMHWVRQAPGKGLEWVAVISSDGNMKFYADSVKGRFTVSRDSSKNTLHLQMNSLRVEDTAFYYCAKDVGSAAPVDYFVSWGQGTLVTVSS
chain 2: B3 chain 2 with S26T, K30R, T31N, F36Y, K45Q, F49Y, G50S, D70H

The binders below were run against SARS-CoV-2 Omicron BA.1 spike pseudovirus (assay: pseudovirus neutralization IC50; higher = weaker neutralization).
Protocol: (§1)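 Single-round VSV luciferase pseudovirus mixed with antibody dilutions for 1 h and put on Huh-7 cells for about a day; IC50 from the dose curve.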

Compared with B1, B2 is 2.4-fold higher in “pseudovirus neutralization IC50” value: 0.0109 µg/mL for the first, 0.0261 µg/mL for the second.

Compared with B3, B4 is lower in “pseudovirus neutralization IC50” value: over 10 µg/mL for the first, 0.0019 µg/mL for the second.

Going from B5 to B6, the “pseudovirus neutralization IC50” value rises from 0.937 µg/mL to 2.68 µg/mL (2.9-fold).

What follows are binders tested against SARS-CoV-2 Omicron BA.2 spike pseudovirus in the same assay as above.
Protocol: as §1

Going from B1 to B2, the “pseudovirus neutralization IC50” value falls from 0.021 µg/mL to 0.00936 µg/mL (2.2-fold).

First: B3
Second: B4
The “pseudovirus neutralization IC50” value of the first is higher: over 10 µg/mL for the first, 0.000753 µg/mL for the second.

B5 and B6 are within 1.5-fold of each other in “pseudovirus neutralization IC50” value: 1.33 µg/mL for the first, 1.9 µg/mL for the second.

What follows are binders tested against SARS-CoV-2 Omicron BA.2.75 spike pseudovirus in the same assay as above.
Protocol: as §1

B1 and B2 are within 1.5-fold of each other in “pseudovirus neutralization IC50” value: 0.0225 µg/mL for the first, 0.0236 µg/mL for the second.

First: B3
Second: B4
The “pseudovirus neutralization IC50” value of the first is higher: over 10 µg/mL for the first, 0.000703 µg/mL for the second.

Going from B5 to B6, the “pseudovirus neutralization IC50” value rises from 1.62 µg/mL to 4.31 µg/mL (2.7-fold).

These binders were tested against SARS-CoV-2 Omicron BA.5 spike pseudovirus in the same assay as above.
Protocol: as §1

B1 and B2 cannot be ordered by “pseudovirus neutralization IC50” value: over 10 µg/mL for the first, over 10 µg/mL for the second.

First: B3
Second: B4
The “pseudovirus neutralization IC50” value of the first is higher: over 10 µg/mL for the first, 0.0112 µg/mL for the second.

Compared with B5, B6 is lower in “pseudovirus neutralization IC50” value: over 10 µg/mL for the first, 3.17 µg/mL for the second.

The binders below were run against SARS-CoV-2 Omicron BQ.1.1 spike pseudovirus in the same assay as above.
Protocol: as §1

B1 and B2 cannot be ordered by “pseudovirus neutralization IC50” value: over 10 µg/mL for the first, over 10 µg/mL for the second.

Going from B3 to B4, the “pseudovirus neutralization IC50” value falls from over 10 µg/mL to 0.0354 µg/mL.

First: B5
Second: B6
The “pseudovirus neutralization IC50” value of the first is higher: over 10 µg/mL for the first, 2.21 µg/mL for the second.

What follows are binders tested against SARS-CoV-2 Omicron XBB spike pseudovirus in the same assay as above.
Protocol: as §1

B1 and B2 cannot be ordered by “pseudovirus neutralization IC50” value: over 10 µg/mL for the first, over 10 µg/mL for the second.

B3 and B4 cannot be ordered by “pseudovirus neutralization IC50” value: over 10 µg/mL for the first, over 10 µg/mL for the second.

Compared with B5, B6 is 2-fold higher in “pseudovirus neutralization IC50” value: 1.47 µg/mL for the first, 2.89 µg/mL for the second.

These binders were tested against SARS-CoV-2 early D614G spike pseudovirus in the same assay as above.
Protocol: as §1

In order of falling “pseudovirus neutralization IC50” value:
1. B5  1.91 µg/mL
2. B3  0.455 µg/mL
3. B6  0.451 µg/mL
4. B2  0.0505 µg/mL
5. B1  0.0107 µg/mL
6. B4  0.000991 µg/mL
